Results deposited as PubChem BioAssay AID504761 (Drosophila RNAi Screening Center, 2011).

- Aim: 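Genome-wide fly cell screen for genes dengue virus requires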 (primary screen)
- Cells: D.Mel-2 cells from Drosophila
- Reagent: long dsRNA against Drosophila genes
- Challenge: infection with dengue virus type 2; dose and infection time not stated
- Measured: 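Cells stained for dengue envelope protein and imaged; percent of infected cells per well on duplicate plates, ranked by infection, with stained nuclei counted for cell number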
- Reading the numbers: infection score: higher = more virus-infected cells; cell count: higher = more cells in the well
- Rule for the call: 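Low infection ranks in the two replicates (chance level up to 0.065) followed by a retest with a 1.5-fold or larger significant decrease, p below 0.05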
- Meaning of the calls: active = confirmed: knock-down lowers infection; inactive = not picked or not confirmed
The deposit covers about 22,000 reagents; this is an unselected part of those that have a named target and a result. In the full data, 116 (0.52%) were called active. 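Calls depend on retest data that are not deposited; infection was ranked per plate without normalising between plates; the unit of the infection score is not given.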 Raw values are not corrected between plates. A number with no mark means an inactive call. Reagents against one gene are numbered here. A plus sign joins genes that one reagent is predicted to hit. Not stated in the record: the amount of reagent, the time to read-out.

no.	gene	reagent	infection score, replicate 1	infection score, replicate 2	cell count, replicate 1	cell count, replicate 2
1	CG13228	1	5.43	26.9	6809	6391
2	CG13228	2	7.43	9.89	5973	5975
3	CG31296	1	2.65	5.87	6406	6469
4	CG14743	1	4.86	5.54	6744	3572
5	soti (scotti)	1	9.97	18	6371	6583
6	soti (scotti)	2	13.8	3.77	3538	795
7	Ir67c (Ionotropic receptor 67c)	1	3.35	1.35	6875	6522
8	CG8191 + CG12379	1		11.3	440	5528
9	spab (space blanket)	1			428	427
10	dpr11 (defective proboscis extension response 11)	1	3.53	5.82	6887	6953
11	dpr11 (defective proboscis extension response 11)	2	4.28	24.7	6495	6862
12	dpr11 (defective proboscis extension response 11)	3	3.3	5.02	7158	7033
13	CG42376 + cin	1	3.48	9.19	6386	6832
14	CG42376 + cin	2	23.3	12.4	4703	6147
15	S (Star)	1	1.12	1.08	6432	6307
16	Ts (Thymidylate synthase)	1	1.62	3.97	6315	6373
17	Ts (Thymidylate synthase)	2	2.98	1.22	4569	5174
18	ND6 (retired record)	1	1.86	2.52	6491	7220
19	Vps28 (Vacuolar protein sorting 28)	1	3.14	13.7	3884	4715
20	CG13807	1	1.94	4.37	6903	6456
21	CG13807	2	11.1	6.71	3402	1162
22	CG11360	1	7.24	1.31	6051	5942
23	CG6843	1	6.98	3.62	6600	6942
24	CG6843	2	16.9	19.1	6568	5999
25	Polr3D (RNA polymerase III subunit D)	1	7.1	14.7	4833	4974
26	Polr3D (RNA polymerase III subunit D)	2	2.94	4.72	2895	5554
27	AnxB11 (Annexin B11)	1	3.34	5.07	6624	6825
28	AnxB11 (Annexin B11)	2	3.84	0.43	5961	6059
29	CG15210	1		0.37	449	534
30	CG15210	2	4.46	2.1	6509	6850
31	CR15821 (pseudo)	1	2.65	3.41	6254	5627
32	CR15821 (pseudo)	2	4.51	2.17	6053	6503
33	Arl1 (ADP ribosylation factor-like 1)	1	2.72	1.87	5892	5997
34	CG42323	1	34	31.4	5300	3065
35	CG42323	2	6.74	5.51	6109	6411
36	ThrRS (Threonyl-tRNA synthetase)	1	8.65	15.2	6092	5699
37	CG17752	1	0.58	6.5	7072	6938
38	CG17752	2	5.17	1.16	6269	6288
39	CG11986	1	4.19	6.12	6496	6715
40	CG11986	2	10	10.8	6288	6051
41	Actn (alpha actinin)	1	5.35	21.5	6561	2796
42	Actn (alpha actinin)	2	4.64	3.87	6039	5838
43	Dlg5 (Discs large 5)	1	17.9	5.52	6718	6429
44	Dlg5 (Discs large 5)	2	9.23	33.1	7161	6441
45	Tsp42A (Tetraspanin 42A)	1	4.8	12.2	6917	4003
46	sut4 (sugar transporter 4)	1	9.12	10.8	6435	6051
47	sut4 (sugar transporter 4)	2	0.95	2.45	6845	6652
48	CG33177	1	3.1	3.17	6486	6882
49	CG4074	1	5.28	4.12	6331	6328
50	CG4074	2	15.1	6.15	6467	6179
51	Hr78 (Hormone-receptor-like in 78)	1	6.1	7.43	6325	6484
52	Hr78 (Hormone-receptor-like in 78)	2	6.03	3.27	6765	7124
53	Tsp42Ek (Tetraspanin 42Ek)	1	10.8	16.8	5753	6220
54	Saf6 (SAGA factor-like TAF6)	1	6.22	4.28	6508	7614
55	CG4854	1	0.89	0.7	6288	6281
56	CG4854	2	6.48	10.2	6911	6621
57	CG9132	1	4.84	6.16	6322	6006
58	CG43394	1	0.11	0.14	6227	6408
59	CG43394	2	14.2	8.9	6047	5806
60	CkIalpha (Casein kinase Ialpha)	1	7.18	22.6	5250	5610
61	CkIalpha (Casein kinase Ialpha)	2	12.7	10.4	3343	5811
62	CkIalpha (Casein kinase Ialpha)	3	3.2	14.1	5404	6116
63	CkIalpha (Casein kinase Ialpha)	4	2.23	8.43	4925	4462
64	crim (crimpled)	1	18.8	8.15	4469	1927
65	NPFR (Neuropeptide F receptor)	1	4.28	6.54	6611	6838
66	Gas41	1	14.7	9.86	5839	5882
67	CG5693	1	4.29	7.6	6031	6121
68	Ets21C (Ets at 21C)	1	28.4	30.4	6580	6002
69	P5cr-2 (Pyrroline-5-carboxylate reductase-like 2)	1	5.32	0.37	5695	5656
70	trsn (translin)	1	8.99	14.6	6754	6142
71	pit (pitchoune)	1	5.63	1.54	6338	6311
72	pit (pitchoune)	2	0.76	9.81	5670	4864
73	pit (pitchoune)	3	13.5	13.3	2290	2161
74	Swip-1 (Swiprosin-1)	1	29.3	20.3	6440	6974
75	Swip-1 (Swiprosin-1)	2	20.3	6.37	4873	6595

An excerpt from the list above, as a working copy:
no.	gene	reagent	infection score, replicate 1	infection score, replicate 2	cell count, replicate 1	cell count, replicate 2
15	S (Star)	1	1.12	1.08	6432	6307
16	Ts (Thymidylate synthase)	1	1.62	3.97	6315	6373
17	Ts (Thymidylate synthase)	2	2.98	1.22	4569	5174
18	ND6 (retired record)	1	1.86	2.52	6491	7220
19	Vps28 (Vacuolar protein sorting 28)	1	3.14	13.7	3884	4715
20	CG13807	1	1.94	4.37	6903	6456
21	CG13807	2	11.1	6.71	3402	1162
22	CG11360	1	7.24	1.31	6051	5942
23	CG6843	1	6.98	3.62	6600	6942
